Test system: human lung epithelial cancer cell line A549
Details: LD50 A549 / IC50 Sgl1
Procedure: The cells were maintained in Dulbecco’s modified eagle medium containing 10% fetal bovine serum and 1% penicillin–streptomycin. At passage 11, 10^5 cells were transferred into each well of 96-well plates and cultured for 18–24 h for the cells to adhere to the well surface. After, the medium was removed and a fresh medium containing the selected compounds at a concentration range of 1–512 μM were added to the wells. Controls with equivalent serial concentrations of DMSO were also evaluated and compared with a control without DMSO. The plate was incubated at 37 °C with 5% CO2. After 24 h, the supernatant was removed and 50 μL of 5 mg/mL 3-(4,5-dimethylthiazol-2-yl)-2,5-diphenyltetrazoliumbromide (MTT) solution in phosphate-buffered saline (PBS) was added to each well. The plates were incubated for an additional 4 h and the formazan crystals formed inside the cell was dissolved by adding 50 μL DMSO.

Row | SMILES | selectivity index (SI = LD50/IC50)
1 | Cc1[nH]c2ccc(CNc3nccc(N)n3)cc2c1C [Hit 6] | 90.65
2 | Cc1ccsc1CN(CCN(C)C)Cc1ccc2nonc2c1 [Hit 10] | 603.6
3 | CN1C[C@H](NS(=O)(=O)c2cc(Cl)ccc2Cl)C[C@H]1CO [Hit 13] | 108.6
4 | CN1C[C@H](Nc2nc(C(C)(C)C)nc3c2cnn3C)C[C@H]1CO [Hit 14] | 357
